# Experimental data reported in patent US20240287533A1, “GLUTEN MODIFICATION” (The Regents of the University of California, priority 2021, published 2024).
# System: Escherichia coli dsDNA
# Experiment: Small Angle X-ray Scattering (SAXS) of peptide-dsDNA complexes
# Assay type: binding
# Protocol: The peaks correspond to a rhombic columnar lattice with inter dsDNA spacing, d=4.0 nm, and tilt angle, γ=104.6°. To facilitate visualization, spectra were manually offset vertically by a multiplicative factor.
# Double stranded DNA (dsDNA) is an example of a PAMP that is readily available in the gastrointestinal tract (e.g., from food or the gut microbiome). To assess the ability of gluten derived peptide gld-1 to bind dsDNA, Escherichia coli dsDNA was incubated with gld-1, and the formation of an ordered dsDNA-gld-1 complex was assessed.
# Small Angle X-ray Scattering (SAXS) measurements of the complex produced Bragg reflections at q10=1.61 and q11=2.55 nm^−1.
# Genomic E. coli dsDNA was incubated with gld-2 and gld-3 to test the formation of an ordered dsDNA-peptide complex.
# [1] = rhombic columnar lattice of peptide-dsDNA complex
sequence,measurement,setting,value
LWQIPEQSRCQAIHNVVHA (listed as Triticum aestivum) [gld-1],Bragg reflection q10,SAXS of dsDNA-gld-1 complex,1.61 nm⁻¹
same,Bragg reflection q11,SAXS of dsDNA-gld-1 complex,2.55 nm⁻¹
same,"inter dsDNA spacing, d",[1],4.0 nm
same,"tilt angle, γ",[1],104.6 °
